This is an account of results in PubChem BioAssay AID977628 (Broad Institute, 2014).

This is a selection; strong and weak results do not stand in their true shares. Records with an inconclusive call do not appear. Active and inactive are the calls of the source.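 Rule for the calls: active = compound lowering the normal-ribosome reporter at least twice as much as the humanized-ribosome reporter, growth loss under a set limit; inconclusive = no clear call, values can overlap the other calls; inactive = the rest.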

A short description of this experiment: E. coli growth inhibition, wild-type GFP versus h24 humanized RFP strain, dose response, h24 mutant RFP vs wild-type GFP, cherry-pick (AID 977628).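 Note: wild-type GFP and h24 humanized RFP strains co-cultured 1 to 1 per well.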 The following applies: E. coli WT GFP strain growth, fluorescence, 24 h; at 50 µM (top of the series).
For `O=[N+]([O-])c1cc([N+](=O)[O-])c(Nc2nnnn2CCO)c([N+](=O)[O-])c1`, the activity change, negative = inhibition is inactive: -11.8.
